± gives the standard deviation of the averaged measurements. This is a selection; strong and weak results do not stand in their true shares.
system: E. coli TESEC Alr+ wild-type control; test: growth (OD600 after 10 h); higher = more growth (less inhibition); settings: compound 0.1 mM; raw OD600 reference: median of DMSO wells 0.49, cell-free background 0.052
Method: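 TESEC Mtb Alr E. coli (ΔaraC ΔtolC ΔentC Δalr ΔdadX, arabinose-inducible Mtb Alr) or the Alr+ wild-type control strain, grown in defined M9-fructose medium without D-alanine in 96-well plates with Prestwick library compounds at 0.1 mM and 1% DMSO. Low Alr induction is 0.1 µM arabinose and high induction is 10 mM arabinose.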

SMILES	growth
COc1cc(Br)c(C[N+]2(CCOCCC3CCC4CC3C4(C)C)CCOCC2)cc1OC (stereo unspecified) [Pinaverium bromide]	0.0476 ± 0.00064

Reference: the supplement of paper PMC9262897, “Low-cost anti-mycobacterial drug discovery using engineered E. coli” (Nature Communications, 2022)
